Experimental data published in paper PMC10178204 (International Journal of Molecular Sciences, 2023).

experiment: general procedure: peptide synthesis; preloaded 2-chlorotrityl resin (Lol analogs); rink amide resin (C-terminal amides); conditions: whole synthesis, UV 220 nm

| Substance | final HPLC purity |
| --- | --- |
| 1-Oct-Aib-Lys-Lys-Leu-Leu-NH2 | Purity=98% |
| 1-Oct-Leu-Aib-Lys-Leu-NH2 | Purity=94% |
| 1-Oct-Leu-Aib-Lys-Ile-NH2 | Purity 91% |
| 1-Oct-Lys-Leu-Aib-Leu-NH2 | Purity=92% |
| 1-Oct-Aib-Lys-Leu-Leu-NH2 | Purity=95% |
| 1-Oct-Leu-Lys-Aib-Leu-NH2 | Purity=98% |
